Measured values from several laboratories, pooled; numbers as filed in NIAID ChemDB.

Shared fields: target-level tests; species: HIV-1; protein: Reverse transcriptase

Percent inhibition refers to the dose given; in toxicity tests it is the harm to the cells. Blank or dashed fields: not listed here. Neighbouring rows are from separate reports. ICn: concentration for n% inhibition. Fold resistance has wild type as its base.

smiles | read by | read-out | changes | tested at | value
CCN1c2ncccc2C=Cc2cccnc21 | nucleotide incorporation | inhibition | RT-K103N | 1 µM | 55%
Cc1ccc2c(c1)n(CCNC(=S)Nc1ccc(Br)cn1)c(=O)c1cccn12 | nucleotide incorporation | Ki |  |  | 0.02 µM
Cc1cn([C@H]2CC[C@@H](COP(=O)(O)OP(=O)(O)OP(=O)(O)O)O2)c(=O)[nH]c1=O | RT activity | Ki | RT-Y188L |  | 0.02 µM
Nc1ccn([C@H]2CC[C@@H](COP(=O)(O)OP(=O)(O)OP(=O)(O)O)O2)c(=O)n1 | nucleotide incorporation / radiometric | Ki | RT-M184V |  | 1.8 µM
O=c1c2cccn2c2ccccc2n1CCNC(=S)Nc1ccc(Br)cn1 | nucleotide incorporation | fold resistance | RT-Y188L |  | 43.1
Nc1ncnc2c1ncn2CCOCP(=O)(O)OP(=O)(O)OP(=O)(O)O | nucleotide incorporation / radiometric | Ki | RT-L74V |  | 0.43 µM
COc1ccc2c(c1)N(C(=O)OC(C)C)[C@@H](CSC)C(=S)N2 | scintillation proximity / radiometric | IC50 | RT-P236L |  | 0.11 µM
c1ccc(C2SCc3nc4ccccc4n32)cc1 |  | fold resistance | RT-K103N |  | ~2
Nc1nc(=O)n([C@@H]2CC[C@H](COP(=O)(O)OP(=O)(O)OP(=O)(O)O)O2)cc1F | nucleotide incorporation / radiometric | Ki |  |  | 2.8 µM
O=c1cnc2ccccc2n1CCNC(=S)Nc1ccc(Br)cn1 | nucleotide incorporation | Ki | RT-L100I |  | 2 µM
CC(C)=CCN1Cc2cccc3[nH]c(=S)n(c23)C[C@@H]1C |  | Ki | RT-H208Y |  | 0.77 µM
Cc1cc(S(N)(=O)=O)ccc1NC(=O)COc1ccc(Cl)cc1C(=O)c1cc(Cl)cc(C#N)c1 | fluorescence | fold resistance | RT-E138K |  | 2.33
O=c1c2cccn2c2cccc(F)c2n1CCNC(=S)Nc1ccc(Br)cn1 | nucleotide incorporation | fold resistance | RT-V106A |  | 1.67
Nc1ccn([C@@H]2CS[C@H](COP(=O)(O)OP(=O)(O)OP(=O)(O)O)O2)c(=O)n1 | nucleotide incorporation / radiometric | Ki | RT-Q151M |  | 2.3 µM

2 of the rows above, restated:

smiles | read by | read-out | changes | tested at | value
COc1ccc2c(c1)N(C(=O)OC(C)C)[C@@H](CSC)C(=S)N2 | scintillation proximity / radiometric | IC50 | RT-P236L |  | 0.11 µM
Nc1ccn([C@@H]2CS[C@H](COP(=O)(O)OP(=O)(O)OP(=O)(O)O)O2)c(=O)n1 | nucleotide incorporation / radiometric | Ki | RT-Q151M |  | 2.3 µM